Laboratory results: ChEMBL document CHEMBL1122059, “Structural modifications of anguidin and antitumor activities of its analogues” (1982)

Tests used:
Mus musculus [1] = species on record: Mus musculus; test: Mice with P-388 leukemia surviving on day 30 post implant
Mus musculus [2] = test: Mice with P-388 leukemia surviving on day 30 post implant at dose 12.8 mg/kg
Mus musculus [3] = test: Mice with P-388 leukemia surviving on day 30 post implant at dose 6.4 mg/kg
Mus musculus [4] = test: Mice with P-388 leukemia surviving on day 30 post implant at dose 25.6 mg/kg
Mus musculus [5] = test: Mice with B16 melanoma surviving on day 60 post implant at dose 8.0 mg/kg
Mus musculus [6] = test: Mice with P-388 leukemia surviving on day 30 post implant at dose 8.0 mg/kg
Mus musculus [7] = test: Mice with P-388 leukemia surviving on day 30 post implant at dose 0.8 mg/kg
Mus musculus [8] = test: Mice with B16 melanoma surviving on day 60 post implant at dose 0.5-2.0 mg/kg
Mus musculus [9] = test: Mice with L1210 tumor surviving on day 60 post implant at dose 2.0 mg/kg
Mus musculus [10] = test: Mice with madisto 109 surviving on day 60 post implant at dose 0.5 mg/kg
Mus musculus [11] = test: Mice with P-388 leukemia surviving on day 30 post implant at dose 1.6 mg/kg
Mus musculus [12] = test: Mice with madisto 109 surviving on day 60 post implant at dose 1.6 mg/kg
Mus musculus [13] = test: Mice with B16 melanoma surviving on day 60 post implant at dose 1.5 mg/kg
Mus musculus [14] = test: Mice with colto 38 surviving on day 106 post implant at dose 2.8 mg/kg; expressed as T/C, 5/10
Mus musculus [15] = test: Mice with lewis lung surviving on day 60 post implant at dose 0.8-1.6 mg/kg; expressed as T/C, 5/10
Mus musculus [16] = test: Mice with Lewis lung surviving on day 60 post implant at dose 0.8-1.6 mg/kg
Mus musculus [17] = test: Mice with lewis lung surviving on day 60 post implant at dose 0.8-1.6 mg/kg; expressed as T/C, 2/10
Mus musculus [18] = test: Mice with madisto 109 surviving on day 60 post implant at dose 0.8-1.6 mg/kg; 95-122
Mus musculus [19] = test: Mice with colto 38 surviving on day 106 post implant at dose 2.8 mg/kg
Mus musculus [20] = test: Mice with P-388 leukemia surviving on day 30 post implant at dose ~1.6 mg/kg; Range is 150-219
Mus musculus [21] = test: Mice with colto 38 surviving on day 106 post implant at dose 4.4 mg/kg
Mus musculus [22] = test: Mice with L1210 tumor surviving on day 60 post implant at dose 0.8-2.4 mg/kg; Range is 156-200
Mus musculus [23] = test: Mice with lewis lung surviving on day 60 post implant at dose 0.8-1.6 mg/kg
Mus musculus [24] = test: Mice with B16 melanoma surviving on day 60 post implant at dose 0.5-2.0 mg/kg; Range is 125-140
Mus musculus [25] = test: Mice with colto 38 surviving on day 106 post implant at dose 2.8 mg/kg; expressed as T/C, 4/10
Mus musculus [26] = test: Mice with Lewis lung surviving on day 60 post implant at dose 0.4 mg/kg
Mus musculus [27] = test: Mice with P-388 leukemia surviving on day 30 post implant at dose 3.2 mg/kg

Structure (SMILES): C=C(C)C(=O)OC[C@]12C[C@@H](O)C(C)=CC1OC1[C@H](O)[C@@H](OC(=O)C(=C)C)[C@@]2(C)C12CO2 (stereo partly specified)
- T/C (Mus musculus [1]): < 125%

Structure (SMILES): C=C(C)C(=O)O[C@@H]1[C@@H](O)C2O[C@@H]3C=C(C)CC[C@]3(CO)[C@]1(C)C21CO1 (stereo partly specified)
- T/C (Mus musculus [2]): 139%

Structure (SMILES): CC1=C[C@H]2OC3[C@H](O)[C@@H](O)[C@@](C)(C34CO4)[C@@]2(CO)CC1 (stereo partly specified)
- T/C (Mus musculus [3]): 183%

Structure (SMILES): CC1=CC2OC3[C@H](O)[C@@H](O)[C@@](C)(C34CO4)[C@@]2(C(=O)O)CC1 (stereo partly specified)
- T/C (Mus musculus [1]): < 125%

Structure (SMILES): C/C=C/C(=O)OC[C@]12CC[C@@]3(C)OC3C1OC1[C@H](O)[C@@H](OC(=O)/C=C/C)[C@@]2(C)C12CO2 (stereo partly specified)
- T/C (Mus musculus [4]): 138%

Structure (SMILES): CC1=C[C@H]2OC3[C@H](O)[C@@H](O)[C@@](C)(C34CO4)[C@@]2(COC(=O)CCl)CC1 (stereo partly specified)
- T/C (Mus musculus [5]): 145%
- T/C (Mus musculus [6]): 198%

Structure (SMILES): CC1=CC2OC3C(=O)[C@@H](OC(=O)CCl)[C@@](C)(C34CO4)[C@@]2(COC(=O)CCl)CC1 (stereo partly specified)
- T/C (Mus musculus [3]): 188%

Structure (SMILES): CC(=O)OC[C@]12C[C@@H](O)C(C)=CC1OC1[C@H](O)[C@@H](OC(=O)CCl)[C@@]2(C)C12CO2 (stereo partly specified)
- T/C (Mus musculus [7]): 167%

Structure (SMILES): CC1=C[C@H]2OC3[C@H](OC(=O)CCl)[C@@H](O)[C@@](C)(C34CO4)[C@@]2(CO)CC1 (stereo partly specified)
- T/C (Mus musculus [8]): > 125%
- T/C (Mus musculus [3]): 194%

Structure (SMILES): CC1=CC2OC3[C@H](OC4CCCCO4)[C@@H](O)[C@@](C)(C34CO4)[C@@]2(C=O)CC1 (stereo partly specified)
- T/C (Mus musculus [3]): < 125%

Structure (SMILES): CC(=O)OC[C@]12CC(=O)C(C)=CC1OC1C(=O)[C@@H](OC(=O)CCl)[C@@]2(C)C12CO2 (stereo partly specified)
- T/C (Mus musculus [9]): 250%
- T/C (Mus musculus [10]): > 353%
- T/C (Mus musculus [11]): 270%
- T/C (Mus musculus [12]): 141%
- T/C (Mus musculus [13]): 145%
- T/C (Mus musculus [14]): 5
- Cures (Mus musculus [15]): 5

Structure (SMILES): CC(=O)O[C@@H]1[C@@H](O)C2OC3C=C(C)CC[C@]3(C=O)[C@]1(C)C21CO1 (stereo partly specified)
- T/C (Mus musculus [3]): > 125%

Structure (SMILES): CC(=O)OC[C@]12CCC(C)=C[C@H]1OC1[C@H](O)[C@@H](OC(C)=O)[C@@]2(C)C12CO2 (stereo partly specified)
- T/C (Mus musculus [16]): 112%
- Cures (Mus musculus [17]): 2
- T/C (Mus musculus [18]): 95%
- T/C (Mus musculus [19]): 141%
- T/C (Mus musculus [20]): 150%
- T/C (Mus musculus [21]): 159%
- T/C (Mus musculus [22]): 156%
- T/C (Mus musculus [23]): 203%
- T/C (Mus musculus [24]): 125%
- Cures (Mus musculus [25]): 4
- T/C (Mus musculus [26]): 135%

Structure (SMILES): CC(=O)OC[C@]12CCC(C)=CC1OC1/C(=N/O)[C@@H](O)[C@@]2(C)C12CO2 (stereo partly specified)
- T/C (Mus musculus [4]): 163%

Structure (SMILES): CC1=C[C@H]2OC3[C@H](O)[C@@H](OC(=O)CCl)[C@@](C)(C34CO4)[C@@]2(CO)CC1 (stereo partly specified)
- T/C (Mus musculus [3]): 156%

Structure (SMILES): C=C(C)C(=O)OC[C@]12CC(=O)C(C)=CC1OC1C(=O)[C@@H](OC(=O)C(=C)C)[C@@]2(C)C12CO2 (stereo partly specified)
- T/C (Mus musculus [27]): 222%

Structure (SMILES): C=C(C)C(=O)OC[C@]12CCC(C)=C[C@H]1OC1[C@H](O)[C@@H](OC(=O)C(=C)C)[C@@]2(C)C12CO2 (stereo partly specified)
- T/C (Mus musculus [11]): 133%

Structure (SMILES): CC(=O)OC[C@]12CCC(C)=CC1OC1/C(=N/NOS(=O)(=O)c3ccc(C)cc3)[C@@H](OC(C)=O)[C@@]2(C)C12CO2 (stereo partly specified)
- T/C (Mus musculus [4]): 125%

Structure (SMILES): C=C(C)C(=O)O[C@@H]1[C@@H](O)C2OC3C=C(C)[C@H](O)C[C@]3(COC(C)=O)[C@]1(C)C21CO1 (stereo partly specified)
- T/C (Mus musculus [3]): 138%

Structure (SMILES): CC(=O)OC[C@]12CC[C@@]3(C)OC3C1OC1[C@H](O)[C@@H](OC(C)=O)[C@@]2(C)C12CO2 (stereo partly specified)
- T/C (Mus musculus [1]): < 125%

Structure (SMILES): CC(=O)OC[C@]12CCC(C)=CC1OC1/C(=N/O)[C@@H](OC(C)=O)[C@@]2(C)C12CO2 (stereo partly specified)
- T/C (Mus musculus [4]): 181%

Structure (SMILES): CC(=O)O[C@@H]1[C@@H](OC2CCCCO2)C2OC3C=C(C)CC[C@]3(C=O)[C@]1(C)C21CO1 (stereo partly specified)
- T/C (Mus musculus [3]): < 125%

Structure (SMILES): CC(=O)O[C@@H]1[C@@H](OC2CCCCO2)C2OC3C=C(C)CC[C@]3(/C=N\NC(N)=O)[C@]1(C)C21CO1 (stereo partly specified)
- T/C (Mus musculus [3]): < 125%
